Measured values from several laboratories, pooled; numbers as filed in NIAID ChemDB.

Common to all: host cell toxicity; cells: HepG2; endpoint: CC50

An empty or dashed field is not shown.

structure | method | setting | result
CO[C@H]1C=CC2=CC(=O)N3CCc4cc5c(cc4[C@]23C1)OCO5 | MTT |  | 3.89 µg/mL
Cc1csc(C(C)(O)c2nnc(Nc3cccc(C(F)(F)F)n3)s2)n1 | resazurin / fluorescence |  | >100 µM
CC[C@H](CC[C@@H](C)[C@H]1CCC2C3CC=C4C[C@@H](O)CC[C@]4(C)[C@@]3(C)CC[C@@]21C)C(C)C | ATP |  | >26 µM
O=C(N/N=C/c1ccc(C23CC4CC(CC(C4)C2)C3)cc1)c1ccncc1 | luminescence |  | 18.7 µg/mL
CC1C(=O)N(O)c2ncc(Br)cc2C1O | MTS | 7 d | 46.1 µM
CC/C=C\C[C@@H]1[C@@H](CC(=O)OC)CC[C@H]1O | ATP |  | >26 µM
CC(=O)c1cccc(NC(=O)/C=C/c2ccc([N+](=O)[O-])cc2)c1 | MTT |  | >160 µg/mL
CC/C=C\C[C@@H]1[C@@H](CC(=O)OC)CC[C@@H]1O | ATP |  | >26 µM
CC(C)OC(=O)[C@H](C)N[P@](=O)(CO[C@H](C)Cn1cnc2c(N)ncnc21)Oc1ccccc1 | ATP |  | 6.9 µM
C[C@@H]1CCC2[C@@H](C)[C@@H](OCCNCCN3CCCCC3)O[C@@H]3OC4(C)CCC1[C@@]23OO4 | ATP / luminescence |  | >13.3 µM
Cc1cc2ccc3c(c2c(-c2ccc4c(c2)OCO4)c1CO)OCO3 |  |  | 16 µM
CCC(=O)OC1O[C@@H]2OC3(C)CCC4[C@H](C)CCC([C@H]1C)[C@]42OO3 | ATP / luminescence |  | >26 µM
COC(=O)N[C@H](C(=O)N1CCC[C@H]1c1ncc(-c2ccc(-c3ccc(-c4cnc([C@@H]5CCCN5C(=O)[C@@H](NC(=O)OC)C(C)C)[nH]4)cc3)cc2)[nH]1)C(C)C | LDH |  | 17.4 µM
Nc1nc(NC2CC2)c2ncn([C@H]3C=C[C@@H](CO)C3)c2n1 |  |  | 180 µM
NNC(=O)c1ccncc1 | luminescence |  | >100 µg/mL
CC1CCCN(c2ccc([N+](=O)[O-])s2)C1 | resazurin |  | >20 µg/mL
Nc1nc2c(ncn2[C@H]2CO[C@@H](CO)O2)c(=O)[nH]1 |  |  | >500 µM
CO[C@H]1/C=C/O[C@@]2(C)Oc3c(C)c(O)c4c(O)c(c(/C=N/N5CCN(C)CC5)c(O)c4c3C2=O)NC(=O)/C(C)=C\C=C\[C@H](C)[C@H](O)[C@@H](C)[C@@H](O)[C@@H](C)[C@H](OC(C)=O)[C@@H]1C | resazurin |  | >100 µg/mL
O=C1OCc2c1cc1ccc3c(c1c2-c1ccc2c(c1)OCO2)OCO3 |  |  | 26 µM
Nc1nc(N)c2ncn([C@H]3CO[C@@H](CO)O3)c2n1 |  |  | ≥500 µM
CN(C)c1ccc(/C=c2\s/c(=C/C(=O)c3ccccc3)[nH]c2=O)cc1 | MTT |  | 92.91 µg/mL
Nc1nc(NC2CC2)c2ncn([C@H]3C=C[C@@H](CO)O3)c2n1 |  |  | >500 µM
COc1cc2c(cc1OC)[C@]13C[C@@H](OC)C=CC1=CCN3CC2 | MTT |  | 15.8 µg/mL
Cc1cc2ccc3c(c2c(-c2ccc4c(c2)OCO4)c1C)OCO3 |  |  | 17 µM
CC(/C=C/C=C(\C)CC(=O)O)=C\C=C\C=C(C)\C=C\C(C)=C(/C)C(=O)O | ATP |  | >26 µM
CC(=O)/C(=C/C=C/c1ccccc1)[N+](=O)[O-] | MTT |  | >160 µg/mL
O=C1OCc2c1cc1c(Br)cc3c(c1c2-c1cc2c(cc1Br)OCO2)OCO3 |  |  | 20 µM
OC1C(O)C(O)C(O)C(O)C1O | ATP |  | >26 µM
Nc1nc2c(ncn2[C@H]2C=C[C@@H](CO)O2)c(=O)[nH]1 |  |  | 280 µM
N#CC(O)c1ccccc1 | MTT |  | 1100 µg/mL
O=C1OCc2cc3ccc4c(c3c(-c3ccc5c(c3)OCO5)c21)OCO4 |  |  | 12 µM
O=C(/C=C/c1ccco1)Nc1ccc(-c2nc3ccccc3[nH]2)cc1 | MTT |  | 163 µg/mL
CC1CCCC23CC4C(CC12C)C4(C)C3 | ATP |  | >26 µM
CC(=O)Oc1ccccc1C(=O)OC1O[C@@H]2OC3(C)CCC4[C@H](C)CCC([C@H]1C)[C@]42OO3 | ATP / luminescence |  | >26 µM
CC/C=C\C[C@H]1C(=O)CC[C@@H]1CC(=O)OC | ATP |  | >26 µM
CC1CCN(c2ccc([N+](=O)[O-])s2)CC1 | resazurin |  | 61 µg/mL
CCSc1nc(NC)c2ccc(F)c(F)c2n1 | fluorescence |  | 39 µg/mL
Nc1nc(NC2CC2)c2ncn([C@H]3C=C[C@@H](CO)C3)c2n1 | neutral red |  | 320 µM
Cc1cn([C@H]2C=C[C@@H](CO)O2)c(=O)[nH]c1=O | ATP |  | 1042 µM
CC1CC(C)CN(c2sc([N+](=O)[O-])cc2[N+](=O)[O-])C1 | resazurin |  | 72 µg/mL
O=C1OC(=O)c2c1cc1c(Br)cc3c(c1c2-c1cc2c(cc1Br)OCO2)OCO3 |  |  | 6 µM
O=C(N/N=C/C1C2CC3CC(C2)CC1C3)c1ccncc1 | luminescence |  | >100 µg/mL
COc1ccc(/C=C2/S/C(=N/N=C/c3ccccc3O)NC2=O)cc1 | MTT |  | >40 µg/mL
O=C(N/N=C/CC12CC3CC(CC(C3)C1)C2)c1ccncc1 | luminescence |  | 40.1 µg/mL
Cc1csc(C(C)(O)c2nnc(Nc3ccc(Br)cn3)s2)n1 | resazurin / fluorescence |  | 79.4 µM

Repeating the first 4 entries:

structure	method	setting	result
CO[C@H]1C=CC2=CC(=O)N3CCc4cc5c(cc4[C@]23C1)OCO5	MTT		3.89 µg/mL
Cc1csc(C(C)(O)c2nnc(Nc3cccc(C(F)(F)F)n3)s2)n1	resazurin / fluorescence		>100 µM
CC[C@H](CC[C@@H](C)[C@H]1CCC2C3CC=C4C[C@@H](O)CC[C@]4(C)[C@@]3(C)CC[C@@]21C)C(C)C	ATP		>26 µM
O=C(N/N=C/c1ccc(C23CC4CC(CC(C4)C2)C3)cc1)c1ccncc1	luminescence		18.7 µg/mL

Conditions beyond the fields shown may differ between rows. CCn: concentration that lowers growth or viability of the cells by n%.